# Test results published in patent US5929070A (Eli Lilly and Company, priority 1997, dated 1999).
# Tested on: 5-HT-2 receptor
# Experiment: pharmacological studies, 5-HT-2 receptor activity
smiles,measurement,value
"Cc1cc2c(s1)Nc1ccccc1N=C2N1CCN(C)CC1 [olanzapine, 2-methyl-4-(4-methyl-1-piperazinyl)-10H-thieno[2,3-b][1,5]benzodiazepine]",activity at the 5-HT-2 receptor,active
